Pooled drug test results. Numbers come from NIAID ChemDB, via PubChem.

Common to all: whole-cell or culture tests; species: Mycobacterium bovis BCG

MIC50, MIC90 and the like: level of inhibition, or share of isolates inhibited. An empty or dashed field is not shown. Conditions beyond the fields shown may differ between rows.

SMILES | setting | endpoint | method | strain | changes | result
O=C(NCCCOCCOCCOCCNC(=O)c1ccc2c(c1)B(O)OC2)c1ccc2c(c1)B(O)OC2 |  | MIC | visual reading / absorbance |  |  | 1560 µM
O=C(C1CCN(c2nnc(-n3cccc3)s2)CC1)N1CCC(Cc2ccccc2)CC1 |  | MIC | fluorescence |  | DprE1 mutant (E221Q) | 25 µM
CCc1cn2c(nc1=O)O[C@@H]1[C@H](F)[C@H]2O[C@@H]1CO |  | MIC25 | resazurin |  |  | 100 µg/mL
CCCCCCCCCCCCCC#CC(=O)OCCO |  | MIC99 |  | mc22421 |  | 1 µM
CC(C)(C)c1ccccc1OCCCON1C(N)=NC(N)=NC1(C)C |  | MIC | fluorescence |  | DHFR-overexpressing | >28.8 µM
c1ccc(Oc2ccc(Nc3ncnc4ccccc34)cc2)cc1 |  | MIC50 | luminescence |  |  | >20 µM
CCCCCCCCCCCCCCCCC#CC(=O)O |  | MIC99 |  | mc22421 |  | 10.6 µM
C[C@H]1COC2(CCN(c3nc(=O)c4cc(C(F)(F)F)cc([N+](=O)[O-])c4s3)CC2)O1 |  | MIC | fluorescence |  | DprE1 mutant (E221Q) | 0.018 µM
CCOC(=O)NC(=O)c1ccsc1NC(=O)c1nc2ccccc2s1 | biofilm | MIC99 | turbidity |  |  | 0.04 µg/mL
FC(F)(F)Oc1ccc(CCNc2ncnc3cc(Br)ccc23)cc1 |  | MIC50 | luminescence |  |  | >20 µM
CCc1cn(C2OC(CO)CC2F)c(=O)[nH]c1=O |  | MIC25 | resazurin |  |  | 100 µg/mL
CC(C)(C)OC(=O)N1CCC2(CC1)CCN(c1ncnc3ccccc13)CC2 |  | MIC50 | luminescence |  |  | >10 µM
CCSCCCCCCCCCCCCC#CC(=O)O |  | MIC99 |  | mc22421 |  | 2.6 µM
Cc1nc(Nc2ccc(Oc3ccc(OC(F)(F)F)cc3)cc2)c2ccc(F)cc2n1 |  | MIC50 | luminescence |  |  | >20 µM
CCCCCCCCCCCCCCCCCC#CC(=O)O |  | MIC99 |  | mc22421 |  | 10.1 µM
CCc1cn(C2OC(CO)C(Br)C2F)c(=O)[nH]c1=O |  | MIC70 | resazurin |  |  | 50 µg/mL
Clc1ccc(CCNc2ncnc3ccccc23)cc1 |  | MIC50 | luminescence |  |  | >10 µM
CCCCCCCCCCCCCCCC#CC(=O)OCC(O)CO |  | MIC99 |  | mc22421 |  | 1.8 µM
CCc1nc2ccc(Cl)cn2c1C(=O)NCc1ccc(N2CCC(c3ccc(OC(F)(F)F)cc3)CC2)cc1 |  | MIC50 | broth dilution |  |  | 0.0016 µM
FC(F)(F)c1ccc(CCNc2ncnc3sccc23)cc1 |  | MIC50 | luminescence |  |  | >20 µM
CCc1n[nH]c(=S)n1N | 24 h | MIC | broth dilution / resazurin |  |  | 62.5 µg/mL
CCCCCCCCCCCCCC#CC(=O)OCC(O)CO |  | MIC99 |  | mc22421 |  | 1 µM
Fc1ccc2c(Nc3ccc(N4CCN(c5ccc(C(F)(F)F)cc5)CC4)cc3)ncnc2c1 |  | MIC50 | luminescence |  |  | >10 µM
NNC(=O)c1ccncc1 |  | MIC | fluorescence |  |  | 0.7 µM
Fc1ccc2c(NCCc3ccc(OC(F)(F)F)cc3)ncnc2c1 |  | MIC50 | luminescence |  |  | >20 µM
NC(=O)NO |  | MIC | visual reading |  |  | 8.36 µg/mL
Cc1nc(NCCc2ccc(OC(F)(F)F)cc2)c2ccccc2n1 |  | MIC50 | luminescence |  |  | 9.5 µM
CCCCCCCCCCCCCCCC#CC(=O)OCCO |  | MIC99 |  | mc22421 |  | 1.9 µM

Repeating the final 3 entries:

SMILES | setting | endpoint | method | strain | changes | result
NC(=O)NO |  | MIC | visual reading |  |  | 8.36 µg/mL
Cc1nc(NCCc2ccc(OC(F)(F)F)cc2)c2ccccc2n1 |  | MIC50 | luminescence |  |  | 9.5 µM
CCCCCCCCCCCCCCCC#CC(=O)OCCO |  | MIC99 |  | mc22421 |  | 1.9 µM